# From patent publication US9957247B2, “SecA inhibitors and methods of making and using thereof” (Georgia State University Research Foundation, Inc., priority 2012, dated 2018)
# By UniProt entry, the sequences of proteins in these tests, tags left out.
# UniProt Q9LCT3, whole entry: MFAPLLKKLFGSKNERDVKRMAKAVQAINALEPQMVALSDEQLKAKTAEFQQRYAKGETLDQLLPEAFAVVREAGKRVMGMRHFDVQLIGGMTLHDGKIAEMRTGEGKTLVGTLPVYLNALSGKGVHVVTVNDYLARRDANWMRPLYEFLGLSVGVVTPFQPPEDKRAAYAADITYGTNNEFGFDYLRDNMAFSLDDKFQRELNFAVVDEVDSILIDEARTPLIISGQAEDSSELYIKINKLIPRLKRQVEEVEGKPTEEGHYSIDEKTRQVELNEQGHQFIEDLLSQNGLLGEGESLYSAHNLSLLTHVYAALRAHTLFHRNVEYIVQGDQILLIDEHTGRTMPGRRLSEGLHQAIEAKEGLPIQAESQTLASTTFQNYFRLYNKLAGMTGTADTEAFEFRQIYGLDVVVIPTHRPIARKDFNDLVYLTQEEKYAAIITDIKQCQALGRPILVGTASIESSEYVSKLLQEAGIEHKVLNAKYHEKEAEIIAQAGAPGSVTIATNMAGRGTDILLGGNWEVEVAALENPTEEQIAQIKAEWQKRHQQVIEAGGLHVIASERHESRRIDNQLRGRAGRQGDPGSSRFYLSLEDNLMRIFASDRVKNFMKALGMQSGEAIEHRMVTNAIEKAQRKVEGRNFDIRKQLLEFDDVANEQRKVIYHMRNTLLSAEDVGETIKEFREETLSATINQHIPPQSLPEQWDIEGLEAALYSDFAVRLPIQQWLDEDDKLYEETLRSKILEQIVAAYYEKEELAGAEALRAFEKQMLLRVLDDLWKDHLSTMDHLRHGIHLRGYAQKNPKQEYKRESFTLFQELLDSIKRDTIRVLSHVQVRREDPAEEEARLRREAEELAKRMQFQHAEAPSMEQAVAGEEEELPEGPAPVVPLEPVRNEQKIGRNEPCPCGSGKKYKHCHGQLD
# UniProt P9WGP5, whole entry: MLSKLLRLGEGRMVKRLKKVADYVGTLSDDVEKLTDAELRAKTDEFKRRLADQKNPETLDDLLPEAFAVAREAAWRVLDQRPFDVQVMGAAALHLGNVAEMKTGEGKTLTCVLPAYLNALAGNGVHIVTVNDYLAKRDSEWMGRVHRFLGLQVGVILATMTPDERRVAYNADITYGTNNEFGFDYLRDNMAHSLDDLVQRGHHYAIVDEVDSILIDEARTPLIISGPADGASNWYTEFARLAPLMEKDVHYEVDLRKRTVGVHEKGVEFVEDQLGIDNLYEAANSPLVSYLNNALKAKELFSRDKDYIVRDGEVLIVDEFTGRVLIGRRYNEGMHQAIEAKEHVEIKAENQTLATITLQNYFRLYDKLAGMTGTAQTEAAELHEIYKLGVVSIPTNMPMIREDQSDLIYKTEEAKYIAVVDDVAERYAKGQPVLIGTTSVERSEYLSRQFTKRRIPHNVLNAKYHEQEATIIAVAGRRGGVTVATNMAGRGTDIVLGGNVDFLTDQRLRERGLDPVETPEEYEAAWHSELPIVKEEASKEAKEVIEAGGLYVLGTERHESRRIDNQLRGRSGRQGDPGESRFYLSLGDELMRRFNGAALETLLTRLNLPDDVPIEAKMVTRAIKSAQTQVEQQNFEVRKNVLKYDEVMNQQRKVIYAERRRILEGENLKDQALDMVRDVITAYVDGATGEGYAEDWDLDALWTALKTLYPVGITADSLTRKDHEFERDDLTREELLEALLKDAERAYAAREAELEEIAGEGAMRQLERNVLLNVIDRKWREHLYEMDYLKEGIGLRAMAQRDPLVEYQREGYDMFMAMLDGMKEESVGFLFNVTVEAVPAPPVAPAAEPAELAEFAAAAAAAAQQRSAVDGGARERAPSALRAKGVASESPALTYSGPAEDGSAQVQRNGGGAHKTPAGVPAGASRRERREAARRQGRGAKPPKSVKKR
# Columns and labels:
# PaSecA = PaSecA (Pseudomonas aeruginosa, UniProt Q9LCT3)
# MtbSecA = MtbSecA (Mycobacterium tuberculosis, UniProt P9WGP5)
# S. aureus Mu50 = experiment: Bacteriostatic effect, S. aureus Mu50
structure (smiles),measurement,setting,value
FC(F)(F)c1cc(-c2nnc(Sc3cc(Cl)nc(Sc4ccccc4)n3)[nH]2)cc(C(F)(F)F)c1,IC50,PaSecA,1100 nM
same,IC50,MtbSecA,2000 nM
same,"Bacteriostatic MIC95, B. anthracis Sterne",B. anthracis Sterne,0.8 µg/mL
same,"Bacteriostatic MIC95, S. aureus Mu50",S. aureus Mu50; Table 2,0.4 µg/mL
same,MIC95 against drug resistant S. aureus Mu50,S. aureus Mu50; text b443,0.4 µM
